This assay concerns the target T1, SARS-CoV-2 Spike receptor binding domain, wild-type (SARS-CoV-2, UniProt P0DTC2 319-541).
T1 construct: domain: RBD
The assay is described as follows: Octet, IgG1 on AHC biosensor. For orientation: Biolayer interferometry detects binding as a change in optical thickness at a sensor tip.

B1: N-612-004 (antibody, V domains shown)
VH: EVQLVESGGGLVQPGGSLRLSCAASGFTFSSYYMHWVRQAPGKGLEWVSAISGSGGYTYYADSVKGRFTISRDNSKNTLYLQMNSLRAEDTAVYYCARDRDHAYDWGFDVWGQGTLVTVSS
VL: DIQMTQSPSSLSASVGDRVTITCQASQDISNYLNWYQQKPGKAPKLLIYDASNLETGVPSRFSGSGSGTDFTFTISSLQPEDIATYYCQQWADWPLTFGQGTKVEIK
Turning to B1, the binding result is on record as “no binding (tested: 2x dilution series starting at 100 nM)”.

These data come from patent US20230218743A1 (IMMUNITYBIO, published 2023).
